For this assay, the target named is ClpC/ClpP (S. aureus ClpC-WT with ClpP) (Staphylococcus aureus, UniProt Q2G0P5). In words: FITC-casein degradation, fluorescence, titration. The note with it: read-out: half-maximal stimulation, allosteric activator, NTD pArg1/pArg2 sites, ATP regenerating system, pH 7.5, 10 mM MgCl2.

Protein sequences, listed by entry. Tags and fused reporters are not part of them. Lines headed by an entry give the natural chain unless they say otherwise; changes in a name come on top.
UniProt Q2G0P5: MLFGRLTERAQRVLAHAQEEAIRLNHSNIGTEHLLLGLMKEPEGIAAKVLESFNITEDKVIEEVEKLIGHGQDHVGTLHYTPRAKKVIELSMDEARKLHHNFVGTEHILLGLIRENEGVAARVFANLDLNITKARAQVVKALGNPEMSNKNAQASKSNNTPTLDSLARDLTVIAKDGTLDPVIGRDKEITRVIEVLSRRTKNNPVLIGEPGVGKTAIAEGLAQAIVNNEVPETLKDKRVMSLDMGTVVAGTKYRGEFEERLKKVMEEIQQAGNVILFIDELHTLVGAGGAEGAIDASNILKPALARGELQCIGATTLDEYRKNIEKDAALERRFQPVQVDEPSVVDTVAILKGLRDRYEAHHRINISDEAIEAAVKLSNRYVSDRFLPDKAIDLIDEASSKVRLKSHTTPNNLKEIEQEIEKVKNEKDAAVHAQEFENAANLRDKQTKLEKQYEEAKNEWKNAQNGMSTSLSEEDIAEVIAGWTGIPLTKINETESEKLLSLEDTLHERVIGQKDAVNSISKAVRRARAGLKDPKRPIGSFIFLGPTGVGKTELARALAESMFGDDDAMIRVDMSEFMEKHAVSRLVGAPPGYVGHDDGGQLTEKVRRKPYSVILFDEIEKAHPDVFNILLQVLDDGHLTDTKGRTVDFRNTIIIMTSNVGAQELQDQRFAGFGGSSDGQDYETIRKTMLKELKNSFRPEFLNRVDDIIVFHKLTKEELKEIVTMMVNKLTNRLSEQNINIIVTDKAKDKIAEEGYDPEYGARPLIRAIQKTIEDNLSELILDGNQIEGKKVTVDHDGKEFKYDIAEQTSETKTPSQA

With `N=C(NCCC[C@H](N)C(=O)O)NP(=O)(O)O`, the EC50 is 220 µM.
